Laboratory results: article PMC6083042
The exact form of at least one protein or probe is not confirmed.

Molecular target: rArsR~P (phosphorylated ArsR response regulator) (Helicobacter pylori) (UniProt O24973)
Experiment: EMSA
Conditions: acetyl phosphate-phosphorylated ArsR, 0.10-0.82 ug, recombinant protein, label: 32P 5' end label (T4 PNK), probe letters rebuilt from the primers and the genome

Row | Sequence | binding result (shift only at higher protein, competed by 2x unlabeled arsR promoter) | binding result (shift even at low protein, competed by 2x unlabeled homB promoter)
1 | CAATTAACTCCTTCAATGATTTCTACAACTTTAAAAACGATTAACTCTGTTAATGTTTTAAGGGCTTGATTTTAGCATTTTATTACTAAAGATACCTTAAAGATGTCTTAAAAATAAAAATTCAAAACATTATCATAGTTATTAATAGAAATTTAAGGCTTTGTTTTCATGGAATATTGAAAATTAAAGCCTTATTTTTTAATGTTTTTAAACAATTCCTTTGATCGTTTT (double strand) [arsR promoter (positive control)] | binds | 
2 | CGCTAAGTAAAGCGCTTTTTAGAAAATTAAGGGGCGTGAAACGCCCTAACCGCTAAAGATGTGCAAGTTTTTGCTAGGGGGTTTTAAGGGTTTTGAGTGTCAAGTTTTTATTAACATAGCCTAATTAATGATAAATAAACTATAAAACAAACGCTCGTTGTTAAGATTTTGTTTCAATATGAAACACTAATCCCTTGTAAAAACTTTAAATTTCAAAAAACAAACAAACAACCCCCTTAAATTGTATAATTAAGACACTATAAACTAAAAAGAGATAACCTCTAGAGCGCG (double strand) [homB promoter] |  | binds
